The source made the active and inactive calls. The rule behind the calls is not given here.

Sequences of proteins named here, by UniProt entry; tags and fusion partners are left off. A change or cut given only in a name is not applied to a line headed by its entry.
UniProt P41145: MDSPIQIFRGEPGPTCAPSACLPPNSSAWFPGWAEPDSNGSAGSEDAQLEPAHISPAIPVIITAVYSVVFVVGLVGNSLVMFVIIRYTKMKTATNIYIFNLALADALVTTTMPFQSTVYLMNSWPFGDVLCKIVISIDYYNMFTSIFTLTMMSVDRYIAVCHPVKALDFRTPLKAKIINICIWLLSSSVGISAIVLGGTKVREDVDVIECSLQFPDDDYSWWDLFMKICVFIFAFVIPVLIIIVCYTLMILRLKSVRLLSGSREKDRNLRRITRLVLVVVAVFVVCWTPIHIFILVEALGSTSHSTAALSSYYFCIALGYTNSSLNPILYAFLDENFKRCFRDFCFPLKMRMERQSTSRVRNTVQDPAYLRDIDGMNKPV
UniProt P41143, whole entry, looked up: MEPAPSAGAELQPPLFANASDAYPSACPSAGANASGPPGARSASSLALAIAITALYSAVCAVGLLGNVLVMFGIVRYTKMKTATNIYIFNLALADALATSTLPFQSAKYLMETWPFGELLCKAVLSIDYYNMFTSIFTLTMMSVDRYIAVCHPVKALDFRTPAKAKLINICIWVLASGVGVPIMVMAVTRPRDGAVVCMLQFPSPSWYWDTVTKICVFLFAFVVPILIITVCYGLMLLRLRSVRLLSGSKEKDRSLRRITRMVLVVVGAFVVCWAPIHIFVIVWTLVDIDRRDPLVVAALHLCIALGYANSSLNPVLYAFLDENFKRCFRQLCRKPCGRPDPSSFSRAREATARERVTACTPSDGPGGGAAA
UniProt P35372, whole entry, looked up: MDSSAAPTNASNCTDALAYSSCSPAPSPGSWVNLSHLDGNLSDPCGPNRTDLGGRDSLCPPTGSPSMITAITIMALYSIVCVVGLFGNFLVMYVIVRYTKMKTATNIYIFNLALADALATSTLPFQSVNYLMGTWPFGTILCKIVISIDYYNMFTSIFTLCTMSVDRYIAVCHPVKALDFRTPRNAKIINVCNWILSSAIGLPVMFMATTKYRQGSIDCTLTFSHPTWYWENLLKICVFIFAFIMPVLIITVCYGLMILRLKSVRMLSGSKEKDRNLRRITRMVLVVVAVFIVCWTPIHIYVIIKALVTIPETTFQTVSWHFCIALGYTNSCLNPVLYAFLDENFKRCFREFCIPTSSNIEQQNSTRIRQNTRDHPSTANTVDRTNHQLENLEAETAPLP

Results on one compound are retold here after ChEMBL document CHEMBL3244199, “6beta-[N,N-Bis(2-chloroethyl)amino]-17-(cyclopropylmethyl)-4,5alpha-epoxy-3,14-dihydroxymorphinan(chlornaltrexamine) a potent opioid receptor alkylating agent with ultralong narcotic antagonist actitivty” (J Med Chem, 1978).

Test [1] relates to Mus musculus. In words: Inhibition of morphine-induced analgesia in icv dosed mouse by tail-flick assay. (In general: Hot-plate and tail-flick tests time the reaction to a heat stimulus.)
Test [2] concerns Mus musculus. In words: Inhibition of morphine-induced analgesia in icv dosed mouse assessed as increase in morphine ED50 measured after 24 hrs by tail-flick assay relative to morphine-alone treated control.
Test [3] relates to Mus musculus. In words: Analgesic activity in mouse at 4.8 nmol, icv measured after 60 mins by tail-flick assay.
Test [4] has as its system Mus musculus. In words: Inhibition of morphine-induced analgesia in mouse assessed as increase in morphine ED50 at 0.6 nmol, icv by tail-flick assay relative to morphine-alone treated control.
For test [5], the system named is Mus musculus. The experiment in a line: Inhibition of morphine-induced analgesia in mouse at 1.2 nmol, icv pretreated with 150 mg/kg naloxone as three divided doses for 30 mins by tail-flick assay.
The test system of test [6] is Mus musculus. In words: Analgesic activity in mouse at 0.6 to 4.8 nmol, icv measured after 2 hrs by tail-flick assay.
Test [7] has as its system Mus musculus. The experiment in a line: Analgesic activity in mouse at 4.8 nmol, icv measured after 10 to 20 mins by tail-flick assay.
Test [8] concerns the target Opioid receptors; mu/kappa/delta (Homo sapiens) (UniProt P41145+P41143+P35372). Particulars: Brain, 10 nM.
Test [9] deals with Mus musculus. In words: Inhibition of morphine-induced analgesia in mouse at 1.2 nmol, icv measured after 6 days by tail-flick assay.
Test [10] concerns Mus musculus. In words: Inhibition of morphine-induced analgesia in mouse assessed as increase in morphine ED50 at 2.4 nmol, icv by tail-flick assay relative to morphine-alone treated control.
Test [11] concerns Mus musculus. In words: Inhibition of morphine-induced analgesia in mouse at 1.2 nmol, icv measured after 3 days by tail-flick assay.
Test [12] relates to Mus musculus. The experiment in a line: Inhibition of morphine-induced analgesia in mouse assessed as increase in morphine ED50 at 1.2 nmol, icv by tail-flick assay relative to morphine-alone treated control.

Turning to `Cl.Oc1ccc2c3c1O[C@H]1[C@H](N(CCCl)CCCl)CC[C@@]4(O)[C@@H](C2)N(CC2CC2)CC[C@]314`, the inhibition entry in test [1] was “Dose-dependent effect”. For the same compound, the fold change (FC) in [2] came to 3; in [4], 7; in test [10], 179; in [12], 66. Further, the result in test [3] and in [6] was inactive. Besides, the inhibition entry in [5] and in test [9] was “inactive” each time. In test [7], the Activity stood at 18%. Moreover, the inhibition result in test [8] and in [11] was “Active” each time.
